Assay [1] addresses T1, Gardos channel (Homo sapiens, UniProt O15554). To be noted: Brugnara, 1993; cited from earlier work.
The target in assay [2] is T1, Gardos channel. Put plainly: Displacement of 125I-ChTX binding to red cells. The following applies: 50 nM.

On to Charybdotoxin, for which the “IC50 for displacement of 125I-ChTX relative to inhibition of K+ transport” value at Gardos channel [1] is on record as “two to three fold increase”. On Gardos channel [2], the “125I-ChTX Binding” value was 0.608 and the “Displacement (%)” value was 100.0%.

The values above are taken from patent US7531573B2 (priority 1994, dated 2009).
